Results of unrelated studies side by side (data: NIAID ChemDB).

Common to all: whole-cell or culture tests; agent: Mycobacterium avium

Neighbouring rows are from separate reports. Blank or dashed fields: not listed here. A number after MIC or MFC names an inhibition level or a share of isolates.

| compound | method | measure | strain | result |
|---|---|---|---|---|
| CC(=O)O[C@H]1C[C@@]2(C)[C@@H](C[C@@H](O)[C@H]3[C@@]4(C)CC[C@@H](O)[C@@H](C)[C@@H]4CC[C@@]32C)/C1=C(\CCC=C(C)C)C(=O)O |  | Median MIC | ATCC 25291 | 12 µg/mL |
| CCc1cc(C(N)=S)ccn1 |  | MIC | 453 | >8 µg/mL |
| NC[C@H]1O[C@H](O[C@H]2[C@H](O)[C@@H](O[C@H]3O[C@H](CO)[C@@H](O)[C@H](N)[C@H]3O)[C@H](N)C[C@@H]2N)[C@H](N)C[C@@H]1O |  | Mean MIC | ATCC 25291 | 6.5 µg/mL |
| C=C(COC(C)=O)C1Cc2cc(O)c(C(C)=O)cc2O1 |  | MIC | ATCC 25291 | 64 µg/mL |
| CC(C)(C)c1cnc(C(=O)/C=C/c2ccccc2Cl)cn1 | absorbance | MIC | Chester | >100 µg/mL |
| N[C@@H]1CONC1=O |  | MIC | 1435 | 8 µg/mL |
| O=C(O)c1cn(C2CC2)c2c(F)c(N3CCN4CCC3C4)c(F)cc2c1=O |  | MIC | SMT | 2 µg/mL |
| CC[C@@H](CO)NCCN[C@@H](CC)CO |  | MIC50 | 9 isolates (HIV+) | >16 µg/mL |
| CC(C)(C)c1cnc(C(=O)/C=C/c2ccc(Cl)cc2)cn1 | absorbance | MIC | Chester | >50 µg/mL |
| NNC(=O)c1ccncc1 |  | Mean MIC | ATCC 25291 | >32 µg/mL |
| C=C[C@](C)(Cl)[C@@H](Br)/C=C/[C@](C)(Cl)CBr |  | MIC | ATCC 25291 | >128 µg/mL |
| CC(C)Cc1cnc(C(=O)/C=C/c2ccc(Cl)cc2)cn1 | absorbance | MIC | Chester | >25 µg/mL |
| CC[C@@H](CO)NCCN[C@@H](CC)CO |  | MIC | 101 | 8 µg/mL |
| Cc1ccc([C@]2(C)CC[C@@H]3C[C@@]32C)c(O)c1 |  | MIC | ATCC 25291 | >128 µg/mL |
| CCCc1cnc(C(=O)/C=C/c2ccc(Br)cc2)cn1 | absorbance | MIC | Chester | >50 µg/mL |
| CC(C)(O)C1=CC[C@@]2(C)C[C@@H]3O[C@]3(C)CC[C@@H]3O[C@@]3(C)CC[C@H]12 |  | MIC | ATCC 25291 | >128 µg/mL |
| CC(C)c1cnc(C(=O)/C=C/c2ccc(Cl)cc2)cn1 | absorbance | MIC | Chester | >50 µg/mL |
| CO[C@H]1/C=C/O[C@@]2(C)Oc3c(C)c(O)c4c(O)c(c(/C=N/N5CCN(C)CC5)c(O)c4c3C2=O)NC(=O)/C(C)=C\C=C\[C@H](C)[C@H](O)[C@@H](C)[C@@H](O)[C@@H](C)[C@H](OC(C)=O)[C@@H]1C |  | MIC | 1435-C clarithromycin-resistant | 2 µg/mL |
| C[C@]1(/C=C/Cl)C[C@](Cl)(CBr)[C@@H](Br)C[C@H]1Cl |  | MIC | ATCC 25291 | 64 µg/mL |
| CO[C@H]1/C=C/O[C@@]2(C)Oc3c(C)c(O)c4c(O)c(c5c(c4c3C2=O)NC2(CCN(CC(C)C)CC2)N=5)=NC(=O)/C(C)=C\C=C\[C@H](C)[C@H](O)[C@@H](C)[C@@H](O)[C@@H](C)[C@H](OC(C)=O)[C@@H]1C |  | MBC | 3337-4 | >32 µg/mL |
| CC[C@H]1OC(=O)[C@H](C)[C@@H](O[C@H]2C[C@@](C)(OC)[C@@H](O)[C@H](C)O2)[C@H](C)[C@@H](O[C@@H]2O[C@H](C)C[C@H](N(C)C)[C@H]2O)[C@](C)(O)C[C@@H](C)CN(C)[C@H](C)[C@@H](O)[C@]1(C)O |  | MIC | 3011 | 8 µg/mL |
| N[C@H]1CCN(c2nc3c(cc2F)c(=O)c(C(=O)O)cn3C2CC2)C1 |  | MIC | II | 32 µg/mL |
| CC[C@H]1OC(=O)[C@H](C)[C@@H](O[C@H]2C[C@@](C)(OC)[C@@H](O)[C@H](C)O2)[C@H](C)[C@@H](O[C@@H]2O[C@H](C)C[C@H](N(C)C)[C@H]2O)[C@](C)(OC)C[C@@H](C)C(=O)[C@H](C)[C@@H](O)[C@]1(C)O |  | MIC | LR114R | 0.12 µg/mL |
| C=C1C[C@H](O)[C@H](Br)C(C)(C)[C@]12CC=C(C)CC2 |  | MIC | ATCC 25291 | 8 µg/mL |
| NC1CCN(c2nc3c(cc2F)c(=O)c(C(=O)O)cn3-c2ccc(F)cc2F)C1 |  | MIC | II | >32 µg/mL |
| CCCCCCCC/C=C\CCCCCCCC(=O)O |  | MIC |  | 2000 µM |
| CC[C@H]1OC(=O)[C@H](C)[C@@H](O[C@H]2C[C@@](C)(OC)[C@@H](O)[C@H](C)O2)[C@H](C)[C@@H](O[C@@H]2O[C@H](C)C[C@H](N(C)C)[C@H]2O)[C@](C)(OC)C[C@@H](C)C(=O)[C@H](C)[C@@H](O)[C@]1(C)O |  | Median MIC | ATCC 25291 | 2 µg/mL |
| CCCCCCCCCCCCCCCCCCC(CC)C(=O)O |  | MIC |  | >2000 µM |
| C[C@@H]1CN(c2c(F)c(N)c3c(=O)c(C(=O)O)cn(C4CC4)c3c2F)C[C@H](C)N1 |  | MIC50 | 9 isolates (HIV+) | 4 µg/mL |
| COC1=CC(=O)c2c(O)cc(C)cc2C1=O |  | MFC |  | 400 µg/mL |
| C=C[C@@](C)(Cl)[C@@H](Br)/C=C/[C@](C)(Cl)CBr |  | MIC | ATCC 25291 | >128 µg/mL |
| CC(C)c1cnc(C(=O)/C=C/c2ccccc2Br)cn1 | absorbance | MIC | Chester | 50 µg/mL |
| Cc1cc(O)c2c(c1)C(=O)C=CC2=O |  | MFC |  | 300 µg/mL |
| CC(C)=CCC[C@H](C)CCOCCCCCC(=O)O |  | MIC |  | 2000 µM |
| [C-]#[N+][C@@]1(C)CC[C@H]2[C@H]3[C@@H](C(=C)CC[C@@H]31)[C@H](C=C(C)C)C[C@@H]2C |  | MIC | ATCC 25291 | 32 µg/mL |
| CC(C)(C)c1cnc(C(=O)/C=C/c2ccccc2F)cn1 | absorbance | MIC | Chester | >100 µg/mL |

4 of the rows above, restated:

compound,method,measure,strain,result
CC[C@H]1OC(=O)[C@H](C)[C@@H](O[C@H]2C[C@@](C)(OC)[C@@H](O)[C@H](C)O2)[C@H](C)[C@@H](O[C@@H]2O[C@H](C)C[C@H](N(C)C)[C@H]2O)[C@](C)(OC)C[C@@H](C)C(=O)[C@H](C)[C@@H](O)[C@]1(C)O,,Median MIC,ATCC 25291,2 µg/mL
O=C(O)c1cn(C2CC2)c2c(F)c(N3CCN4CCC3C4)c(F)cc2c1=O,,MIC,SMT,2 µg/mL
[C-]#[N+][C@@]1(C)CC[C@H]2[C@H]3[C@@H](C(=C)CC[C@@H]31)[C@H](C=C(C)C)C[C@@H]2C,,MIC,ATCC 25291,32 µg/mL
CCCCCCCC/C=C\CCCCCCCC(=O)O,,MIC,,2000 µM